Five compounds from patent publication US10988444B2, “Antimicrobial compounds” (NEWSOUTH INNOVATIONS PTY LIMITED, priority 2016, dated 2021) can be followed below.

Data set [1] concerns MRC-5 normal human lung fibroblasts. Briefly: Cytotoxicity assay, Alamar blue, Example 2. The data set is classed as cell-based. The following applies: IC50 value divided by MIC value. The protocol:
The in vitro toxicity of the compounds (24a, 38b, 42d, 43d) was determined against MRC-5 normal human lung fibroblasts using the Alamar blue assay (see O'Brien, J.; Wilson, I.; Orton, T.; Pognan, F. Eur. J. Biochem. 2000, 267 (17), 5421-5426). A dose-response curve for each compound was generated to determine the IC50 values (concentration of compound which killed half of the cells) and the IC50 values were then used to determine the therapeutic window (IC50 value divided by MIC value) and specificity of the compounds (Table 3).

Data set [2] has the same test system. Briefly: Toxicity assay, Alamar blue, Example 1. The data set is classed as cell-based. The note with it: IC50 MRC-5 versus MIC. The protocol: The normal human lung fibroblasts MRC-5 were cultured in minimal essential medium (MEM, Invitrogen) supplemented with 10% foetal calf serum (FCS), 1% L-glutamine-penicillin-streptomycin, 2% sodium bicarbonate, 1% non-essential amino acids (NEAA) and 1% sodium pyruvate. The cell line was maintained at 37° C. in 5% CO2 as an adherent monolayer and was passaged upon reaching confluence by standard cell culture techniques. MRC-5 cells were seeded at 2×10^4 cells per well in 96-well plates to ensure full confluence (quiescence). Cells were treated 24 h after seeding with 0.1 to 1000 μM of compounds. After 72 h drug incubation, the treated media was replaced with fresh media containing 10% Alamar blue and the cells were incubated for another 6 h. The metabolic activity was detected by spectrophotometric analysis by assessing the absorbance of Alamar blue as previously described by Pasquier et. al (see Pasquier, E.; Ciccolini, J.; Carre, M.; Giacometti, S.; Fanciullino, R.; Pouchy, C.; Montero, M.-P.; Serdjebi, C.; Kavallaris, M.; André, N. Oncotarget 2011, 2, 797).
Cell proliferation was determined and expressed as a percentage of untreated control cells. The determination of IC50 values was performed using GraphPad Prism 6 (San Diego, Calif., USA). […]
Background: Resazurin is reduced to fluorescent resorufin, in cell work by metabolically active cells.

Regarding `CCCCCCCCS(=O)(=O)Nc1ccccc1C(=O)C(=O)NCCCNC(=N)N.Cl` [Compound 42d, N-(3-Guanidinopropyl)-2-(2-(octylsulfonamido)phenyl)-2-oxoacetamide hydrochloride], the Therapeutic window in data set [1] was found to be 7.94.

For the compound `COC(=O)[C@H](CCCNC(=N)N)NC(=O)[C@H](CCCNC(=N)N)NC(=O)C(=O)c1cc(Br)ccc1NC(=O)c1ccc2ccccc2c1.Cl.Cl` [Compound 66, Methyl (2-(2-(2-naphthamido)-5-bromophenyl)-2-oxoacetyl)arginylargininate dihydrochloride], in data set [2], the “IC50 against MRC-5 relative to MIC (fold lower toxicity to mammalian cells)” value is recorded as over 48 fold.

In the case of `COC(=O)[C@H](CCCNC(=N)N)NC(=O)[C@H](CCCNC(=N)N)NC(=O)C(=O)c1ccccc1NC(=O)c1ccc2ccccc2c1.Cl.Cl` [Compound 65, Methyl (2-(2-(2-naphthamido)phenyl)-2-oxoacetyl)arginylargininate dihydrochloride], in data set [2], the “IC50 against MRC-5 relative to MIC (fold lower toxicity to mammalian cells)” value is “greater than 24 fold”.

In data set [1], `CCCCCCCCS(=O)(=O)Nc1ccc(Br)cc1C(=O)C(=O)NCCCNC(=N)N.Cl` [Compound 43d, 2-(5-Bromo-2-(octylsulfonamido)phenyl)-N-(3-guanidinopropyl)-2-oxoacetamide hydrochloride] registered a Therapeutic window of 14.83.

Regarding `CCCCCCCCS(=O)(=O)Nc1ccc(Br)cc1C(=O)C(=O)NCCN(C)C.Cl` [Compound 38b, 2-(2-(5-Bromo-2-(octylsulfonamido)phenyl)-2-oxoacetamido)-N,N-dimethylethan-1-aminium chloride], the Therapeutic window in data set [1] was 1.20.
